From ChEMBL document CHEMBL1240404, “Rapamycin protects mice from staphylococcal enterotoxin B-induced toxic shock and blocks cytokine release in vitro and in vivo” (Antimicrob Agents Chemother, 2010) come the findings set out here.

Assay [1] deals with Mus musculus. Put plainly: Antiinflammatory activity in C3H/HeJ mouse assessed as reduction in SEB-induced increase in lung MCP-1 level at 0.7 mg/kg, in measured after 51 hrs of SEB challenge. Set-up: scale not given: the % may be the effect or the level left.
The subject of assay [2] is Mus musculus. Put plainly: Antiinflammatory activity in C3H/HeJ mouse assessed as reduction in SEB-induced increase in lung IL-2 level at 0.7 mg/kg, in measured after 51 hrs of SEB challenge. Set-up: scale not given: the % may be the effect or the level left.
In assay [3] the test system is Mus musculus. Put plainly: Antiinflammatory activity in C3H/HeJ mouse assessed as reduction in SEB-induced increase in lung IL-6 level at 0.7 mg/kg, in measured after 51 hrs of SEB challenge. Also noted: scale not given: the % may be the effect or the level left.
Assay [4] relates to Mus musculus. Put plainly: Antiinflammatory activity in C3H/HeJ mouse assessed as reduction in SEB-induced increase in serum MCP-1 level at 0.7 mg/kg, in after 2 hrs. The conditions noted are these: strain C3H/HeJ.
The test system of assay [5] is Mus musculus. Description: Antiinflammatory activity in C3H/HeJ mouse assessed as reduction in SEB-induced increase in serum IL-6 level at 0.7 mg/kg, in after 2 hrs. The settings on record: strain C3H/HeJ.

In the case of `CO[C@H]1C[C@@H]2CC[C@@H](C)[C@@](O)(O2)C(=O)C(=O)N2CCCC[C@H]2C(=O)O[C@H]([C@H](C)C[C@@H]2CC[C@@H](O)[C@H](OC)C2)CC(=O)[C@H](C)/C=C(\C)[C@@H](O)[C@@H](OC)C(=O)[C@H](C)C[C@H](C)/C=C/C=C/C=C/1C`, the results for the Activity in assay [1], in assay [2] and in assay [3] were 56%, 80% and 65%, respectively. For the same molecule, the results for the inhibition (INH) in assay [4] and in assay [5] were 90% and 80%, respectively.
